Pooled drug test results. Numbers come from NIAID ChemDB, via PubChem.

All rows: whole-cell or culture tests; agent: Mycobacterium tuberculosis

Two numbers with a dash give a range or band.

structure | read-out | strain or isolate | cells | dose | read by | conditions | value
O=C(NCc1ccc(N2CCN(Cc3ccccc3)CC2)nc1)c1ccc([N+](=O)[O-])o1 | MIC | H37Rv |  |  |  |  | 0.006 µg/mL
O=C(Oc1cc(Cl)ccc1C(=O)Nc1ccc(C(F)(F)F)cc1)c1cnccn1 | MIC | multidrug resistant 9449/2006 |  |  |  | 14 d | 0.125 µM
Cc1ccc(C(=O)Nc2cccc([N+](=O)[O-])c2)c(O)c1 | MIC | CNCTC MY331/88 |  |  |  |  | 4 µM
CCC(C)OC(=O)N1CCN(c2nc3nc(N4CCCCC4)ccc3cc2-c2ccccc2)CC1 | MIC | H37Rv |  |  |  |  | >6.25 µg/mL
CN[C@@H]1[C@H](O[C@H]2[C@H](O[C@H]3[C@H](O)[C@@H](O)[C@H](N=C(N)N)[C@@H](O)[C@@H]3N=C(N)N)O[C@@H](C)[C@]2(O)C=O)O[C@@H](CO)[C@H](O)[C@H]1O | MIC | H37Rv |  |  |  |  | <2 µg/mL
O=C(Nc1cccc(F)c1)c1cc(Cl)ccc1O | MIC | CNCTC MY331/88 |  |  |  |  | 8 µM
Nc1ccc2c(N3CCCCC3)cc(N3CCOCC3)nc2n1 | EC50 | H37Rv |  |  | BACTEC |  | >6.25 µg/mL
O=[n+]1c(Sc2ccccc2)c(CBr)n([O-])c2cc(F)c(F)cc21 | inhibition | H37Rv |  | 6.25 µg/mL |  |  | 48%
Cc1c(C)c2c(c(C)c1O)SC(CC(=O)O)C(=O)O2 | MIC bound | H37Rv |  |  | BACTEC |  | >12.5 µg/mL
COC(=O)c1ccc(/C=C2/NC(=S)NC2=O)cc1 | inhibition | H37Rv |  | 6.25 µg/mL | BACTEC |  | 8%
N#Cc1nc(CC(=O)c2ccc(Cl)cc2Cl)c(CC(=O)c2ccc(Cl)cc2Cl)nc1C#N | MIC bound | H37Rv |  |  | BACTEC |  | >12.5 µg/mL
Cc1ccc2nc(SCc3ccc(C#N)cc3)[nH]c2c1 | MIC | MY 332/88 |  |  |  |  | 32 µM
Cc1ccc2c(Cl)c(C)c(Cl)nc2n1 | inhibition | H37Rv |  | 6.25 µg/mL | BACTEC |  | 1%
Cc1ccc2nc(SCc3ccccc3)[nH]c2c1 | MIC | MY 332/88 |  |  |  |  | 62 µM
O=C(O)C(=O)O.OC(CNCCc1ccccc1)CN1c2ccccc2Sc2ccccc21 | MIC | XDR-83 |  |  | resazurin |  | 32 µg/mL
CC(=O)c1csc(Nc2ccccn2)n1 | MIC | H37Rv |  |  | visual reading |  | >20 µM
NNC(=O)c1ccncc1 | MIC | H37Rv 331/88 |  |  |  | 14 d | 0.5–1 µM
O=C1NC(=S)N/C1=C\c1cccc([N+](=O)[O-])c1 | inhibition | H37Rv |  | 6.25 µg/mL | BACTEC |  | 29%
O=c1ccc2c(-c3ccccc3)cc(N3CCOCC3)nc2[nH]1 | MIC | H37Rv |  |  |  |  | >6.25 µg/mL
O=C1NC(=S)N/C1=C/c1cccc(OCc2ccccc2)c1 | inhibition | H37Rv |  | 6.25 µg/mL | BACTEC |  | 94%
Cc1ccc(S(=O)(=O)n2nc([C@@H]3O[C@H](CO)[C@@H](O)[C@H]3O)c(O)c2C(N)=O)cc1 | inhibition | H37Rv |  | 12.5 µg/mL | BACTEC |  | 7%
O=C1NC(=S)N/C1=C/c1cccc(Cl)c1 | inhibition | H37Rv |  | 6.25 µg/mL | BACTEC |  | 71%
O=C(c1ccncc1)N1N=C(c2ccccc2)CC1(O)C(F)(F)F | MIC | RGH101 |  |  |  |  | 74.63 µM
CCOC(=O)c1ccc(NC(=O)c2ccc(OC)cc2O)cc1 | MIC | CNCTC MY331/88 |  |  |  |  | 4 µM
O=C1c2ccccc2-c2nsc3cccc1c23 | inhibition | H37Rv |  | 12.5 µg/mL | BACTEC |  | 0%
Cc1ccc2c(c1)n([O-])c(C)c(S(=O)(=O)c1ccccc1)[n+]2=O | inhibition | H37Rv |  | 6.25 µg/mL |  |  | 99%
c1ccc(-c2cc(N3CCOCC3)nc3nc(N4CCOCC4)ccc23)cc1 | inhibition | H37Rv |  | 6.25 µg/mL |  |  | 0%
O=C(Oc1ccc(Cl)cc1C(=O)Nc1ccc(Cl)c(Cl)c1)c1cnccn1 | MIC | H37Rv 331/88 |  |  |  | 14 d | 1 µM
Clc1ccc2c(-c3ccccc3)cc(N3CCOCC3)nc2n1 | inhibition | H37Rv |  | 6.25 µg/mL |  |  | 36%
CC(C)(C)c1ccc(C(=O)Nc2nnc(-c3ccccn3)s2)cc1 | MIC | H37Rv |  |  | visual reading |  | >20 µM
O=C(O)c1nc2ccccc2[nH]c1=O | MIC bound | H37Rv |  |  | BACTEC |  | >12.5 µg/mL
CC1COc2c(N3CCN(C)CC3)c(F)cc3c(=O)c(C(=O)O)cn1c23 | MIC | SMI 17 |  |  | agar |  | 0.5 µg/mL
c1ccc(-c2csc(Nc3cccnc3)n2)nc1 | MIC | H37Rv |  |  | visual reading |  | >20 µM
CN[C@@H]1[C@H](O[C@H]2[C@H](O[C@H]3[C@H](O)[C@@H](O)[C@H](N=C(N)N)[C@@H](O)[C@@H]3N=C(N)N)O[C@@H](C)[C@]2(O)C=O)O[C@@H](CO)[C@H](O)[C@H]1O | MIC | Isolate 5 |  |  |  |  | 16 µg/mL
O=c1oc2cc(-n3c(=O)c4ccccc4c4ccccc4c3=O)ccc2c2ccccc12 | inhibition | H37Rv |  | 12.5 µg/mL | BACTEC |  | 1%
CN(CCCC#CC(C)(C)C)c1cccc2c1CCC(=O)N2 | MIC | H37Rv |  |  |  |  | 0.78 µg/mL
O=C1NC(=S)N/C1=C/c1ccccc1Br | EC50 | H37Rv |  |  | BACTEC |  | >6.25 µg/mL
CCOC(=O)N1CCN(c2ccc(C3CC(c4ccc([N+](=O)[O-])o4)=NO3)cc2)CC1 | MIC | UT30 |  |  |  |  | 0.003 µg/mL
c1cc2c(N3CCCCC3)cc(N3CCOCC3)nc2nc1N1CCCCC1 | EC50 | H37Rv |  |  | BACTEC |  | >6.25 µg/mL
CC(=O)Oc1ccccc1C(=O)Nc1ncc([N+](=O)[O-])s1 | MIC | ND spoligotype 4 |  |  | visual reading |  | 17.3 µg/mL
CO[C@@]12[C@H](COC(N)=O)C3=C(C(=O)C(C)=C(N)C3=O)N1C[C@H]1[C@@H]2N1C | MIC | INH-r |  |  |  |  | 0.8 µg/mL
CN(CC#CC(C)(C)C)c1cccc2c1CCC(=O)N2 | inhibition | H37Rv |  | 6.25 µg/mL |  |  | 88%
CON/C=C(C#N)/C=C/C=Nc1ccc(S(=O)(=O)Nc2onc(C)c2C)cc1 | MIC bound | H37Rv |  |  | BACTEC |  | >12.5 µg/mL
O=C(Nc1nc(-c2ccccn2)cs1)c1cc([N+](=O)[O-])cc([N+](=O)[O-])c1 | MIC | H37Rv |  |  | visual reading |  | >20 µM
CCCCCCCCS(=O)(=O)CC(N)=O | MIC | 42-1C9383 |  |  |  |  | ≤12.5 µg/mL
c1ccc(-c2cc(N3CCCCC3)nc3nc(N4CCCCC4)ccc23)cc1 | MIC | H37Rv | VERO |  |  |  | 6.25 µg/mL
NCCC(O)C(N)CC(=O)NC1CNC(=O)C(C2CCN=C(N)N2)NC(=O)/C(=C/NC(N)=O)NC(=O)C(CO)NC(=O)C(CO)NC1=O | MIC | H37Rv |  |  |  |  | 12.5 µg/mL
CCOC(=O)c1nnc(C)[nH]c1=O | inhibition | H37Rv |  | 12.5 µg/mL | BACTEC |  | 0%
NNC(=O)c1ccncc1 | MIC | PR326 |  |  |  |  | 0.08 µg/mL
Oc1ccccc1-c1csc(Nc2ccccc2C(F)(F)F)n1 | MIC | H37Rv |  |  | visual reading |  | >20 µM
Cc1ccc(C)c(/C=C2/NC(=S)NC2=O)c1 | EC50 | H37Rv |  |  | BACTEC |  | <6.25 µg/mL
O=C(c1ccncc1)N1N=C(c2ccco2)CC1(O)C(Cl)(Cl)Cl | MIC | RGH102 |  |  |  |  | >268 µM
NC[C@@H]1O[C@H](O[C@H]2[C@@H](O)[C@H](O[C@@H]3[C@@H](O)[C@H](N)C[C@H](N)[C@H]3O[C@H]3O[C@H](CO)[C@@H](O)[C@H](O)[C@H]3N)O[C@@H]2CO)[C@H](N)[C@@H](O)[C@@H]1O | MIC | MTB13 (INH-R) |  |  |  |  | 0.75 µg/mL
O=C(N=Nc1c(O)[nH]c2ccc(Br)cc12)c1ccco1 | MIC | H37Rv |  |  | BACTEC |  | ≥12.5 µg/mL
Cc1ccc2nc(SCc3ccc(Cl)c(Cl)c3)[nH]c2c1 | MIC | MY 332/88 |  |  |  |  | 32 µM
O=C(Nc1cccc(Cl)c1)c1cc(Br)ccc1O | MIC | CNCTC MY331/88 |  |  |  |  | 8 µM
O=S(=O)(Nc1nc2ccccc2n1S(=O)(=O)c1ccccc1)c1ccccc1 | inhibition | H37Rv |  | 6.25 µg/mL | resazurin |  | 1%
c1ccc(-c2cc3ccc(N4CCOCC4)nc3nc2N2CCCCC2)cc1 | MIC | H37Rv |  |  |  |  | >6.25 µg/mL
O=C1NC2C(NC(=O)N2Cl)N1Cl | inhibition | H37Rv |  | 12.5 µg/mL | BACTEC |  | 4%
Cc1ccc(C2=NN(C(=O)c3ccncc3)C(O)(C(Cl)(Cl)Cl)C2)cc1 | MIC | RGH103 |  |  |  |  | >252 µM
O=C(Oc1ccc(Cl)cc1C(=O)Nc1cccc(F)c1)c1cnccn1 | MIC | H37Rv 331/88 |  |  |  | 21 d | 4 µM
C[C@]1(COc2ccc(N3CCC(Oc4ccc(OC(F)(F)F)cc4)CC3)cc2)Cn2cc([N+](=O)[O-])nc2O1 | MIC | H37Rv (EB-resistant) |  |  |  |  | 0.012 µg/mL
Cn1c(=O)nc2n(-c3cc(C(F)(F)F)cc(C(F)(F)F)c3)c3ccccc3nc-2c1=O | inhibition | H37Rv |  | 12.5 µg/mL | BACTEC |  | 0%
O=C(Oc1ccc(Cl)cc1C(=O)Nc1cccc(C(F)(F)F)c1)c1cnccn1 | MIC | multidrug resistant 53/2009 |  |  |  | 21 d | 2 µM
O=C1NC(=S)N/C1=C/C=C/c1ccccc1 | inhibition | H37Rv |  | 6.25 µg/mL | BACTEC |  | 94%
C[C@]1(COc2ccc(N3CCC(Oc4ccc(OC(F)(F)F)cc4)CC3)cc2)Cn2cc([N+](=O)[O-])nc2O1 | MIC | UT18 |  |  |  |  | 0.024 µg/mL
CCC(C)OC(=O)N1CCN(c2nc3nc(Cl)ccc3cc2-c2ccccc2)CC1 | inhibition | H37Rv |  | 6.25 µg/mL |  |  | 67%
Nc1ccc(C(=O)O)c(O)c1 | MIC | H37Rv |  |  |  |  | 0.1 µg/mL
Cc1cc(C)n(C2=NS(=O)(=O)c3ccccc3N2C)n1 | MIC bound | H37Rv |  |  | BACTEC |  | >6.25 µg/mL
Cc1ccc2nc(SCc3ccc(F)c(F)c3)[nH]c2c1 | MIC | MY 332/88 |  |  |  |  | >32 µM
CC1COc2c(N3CCN(C)CC3)c(F)cc3c(=O)c(C(=O)O)cn1c23 | MIC | H37RV (SM-R) |  |  |  |  | 1.25 µg/mL
ClCCN1c2ccccc2Oc2ccc3ccccc3c21 | MIC bound | H37Rv |  |  | BACTEC |  | >12.5 µg/mL
Cc1ccc2c(Cl)c(Cc3ccccc3)c(N3CCCCC3)nc2n1 | EC50 | H37Rv |  |  | BACTEC |  | >6.25 µg/mL
NNC(=O)c1ccncc1 | MIC | MTB9 (RIF-R) |  |  |  |  | >2 µg/mL
CO[C@H]1/C=C/O[C@@]2(C)Oc3c(C)c(O)c4c(O)c(c(/C=N/N5CCN(C)CC5)c(O)c4c3C2=O)NC(=O)/C(C)=C\C=C\[C@H](C)[C@H](O)[C@@H](C)[C@@H](O)[C@@H](C)[C@H](OC(C)=O)[C@@H]1C | MIC | Isolate 16 |  |  |  |  | <0.03 µg/mL
O=C1NC(=S)N/C1=C/c1cccc(OCc2ccc(Cl)cc2Cl)c1 | EC50 | H37Rv |  |  | BACTEC |  | <6.25 µg/mL
CC1=NN(C(=O)c2ccncc2)C(O)(C(F)(F)F)C1 | MIC | RGH104 |  |  |  |  | 5.71 µM
COc1cccc(-c2[nH]c3cc4c(cc3c(=O)c2C(=O)O)OCO4)c1 | MIC bound | H37Rv |  |  | resazurin |  | >6.25 µg/mL
c1ccc(-c2csc(Nc3ccncc3)n2)nc1 | MIC | H37Rv |  |  | visual reading |  | >20 µM
O=C1C=CC2NC(c3cccs3)Nc3cccc1c32 | MIC bound | H37Rv |  |  | BACTEC |  | ≤128 µg/mL
NCCCN1c2ccccc2Sc2ccccc21 | MIC | STB-9102 |  |  | resazurin |  | 2 µg/mL
CCCCN1CCN(CCCC)C1=O | inhibition | H37Rv |  | 12.5 µg/mL | BACTEC |  | 13%
NNC(=O)c1ccncc1 | MIC | Isolate 12 |  |  |  |  | >32 µg/mL
Fc1ccc(NC(=S)S)cc1 | MIC | H37Rv |  |  | BACTEC |  | ≥12.5 µg/mL
NNC(=O)c1ccncc1 | MIC | 104396 |  |  |  |  | ≥0.2 µg/mL
Cc1c2oc3c(C)ccc(C(=O)OCCN4CCCC4)c3nc-2c(C(=O)OCCN2CCCC2)c(N)c1=O | MIC | H37Rv |  |  | BACTEC |  | 6.25 µg/mL
CO[C@H]1/C=C/O[C@@]2(C)Oc3c(C)c(O)c4c(O)c(c(/C=N/N5CCN(C)CC5)c(O)c4c3C2=O)NC(=O)/C(C)=C\C=C\[C@H](C)[C@H](O)[C@@H](C)[C@@H](O)[C@@H](C)[C@H](OC(C)=O)[C@@H]1C | MIC | H37Rv |  |  | visual reading |  | 0.004 µM

A second listing of 5 rows from above:

structure,read-out,strain or isolate,cells,dose,read by,conditions,value
NCCCN1c2ccccc2Sc2ccccc21,MIC,STB-9102,,,resazurin,,2 µg/mL
Nc1ccc(C(=O)O)c(O)c1,MIC,H37Rv,,,,,0.1 µg/mL
CN[C@@H]1[C@H](O[C@H]2[C@H](O[C@H]3[C@H](O)[C@@H](O)[C@H](N=C(N)N)[C@@H](O)[C@@H]3N=C(N)N)O[C@@H](C)[C@]2(O)C=O)O[C@@H](CO)[C@H](O)[C@H]1O,MIC,Isolate 5,,,,,16 µg/mL
Cc1ccc2nc(SCc3ccc(C#N)cc3)[nH]c2c1,MIC,MY 332/88,,,,,32 µM
O=C(Oc1cc(Cl)ccc1C(=O)Nc1ccc(C(F)(F)F)cc1)c1cnccn1,MIC,multidrug resistant 9449/2006,,,,14 d,0.125 µM

MIC bound comes from a single tested concentration. ECn: concentration that inhibits the pathogen or its effect by n%. An empty or dashed field is not shown. Percent inhibition refers to the dose given; in toxicity tests it is the harm to the cells. Conditions beyond the fields shown may differ between rows.